Test results from paper PMC3260234.

Assays:
Test in all cases: EMSA
Conditions in all cases: 20 mM Tris-HCl pH 7.5, 100 mM NaCl, 2 mM EDTA, room temperature 20 min, recombinant protein, protein details: 6xHis (pET28a), probe letters rebuilt from the primers and the genome
[1] = target: T1, OxyS-C124A (Mycobacterium tuberculosis) (UniProt L7N677)
T1 sequence (looked up, limits assumed): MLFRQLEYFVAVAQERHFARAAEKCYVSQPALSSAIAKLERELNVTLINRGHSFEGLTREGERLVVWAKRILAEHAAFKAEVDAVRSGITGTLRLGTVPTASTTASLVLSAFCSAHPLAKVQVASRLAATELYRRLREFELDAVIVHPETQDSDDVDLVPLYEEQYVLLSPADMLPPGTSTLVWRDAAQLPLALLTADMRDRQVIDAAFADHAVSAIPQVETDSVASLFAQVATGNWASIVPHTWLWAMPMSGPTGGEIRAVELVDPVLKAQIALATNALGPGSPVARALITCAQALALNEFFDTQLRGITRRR

[2] = target: T2, OxyS-C293A (Mycobacterium tuberculosis) (UniProt L7N677)
T2 sequence (looked up, limits assumed): T1 sequence (looked up, limits assumed) with A124C, C293A

[3] = target: T3, OxyS-C25A (Mycobacterium tuberculosis) (UniProt L7N677)
T3 sequence (looked up, limits assumed): T1 sequence (looked up, limits assumed) with C25A, A124C

[4] = target: T4, OxyS-C113A (Mycobacterium tuberculosis) (UniProt L7N677)
T4 sequence (looked up, limits assumed): T1 sequence (looked up, limits assumed) with C113A, A124C

Measured: binding result

AGCATTCCTTCCAGGAGTTGGTGTTATCGGGCTGTGATCACGGATGTGATCGCGAAGTGTCGGATATCGAACAATCAGGACATAGACCCCAGTAGATGACCTCCGCCTCGTCCAACAGGAAGCCGTTATGGTCCGAGGCCGTCAGACAGGGTGCCTCGCCAACAGCACAGTCGACATCGGCGATAACCCCGCAAGACCGGCAGACGATGTGATGGTGGTTGTCGCCGACCCTGGACTCGTAGCGCGCGACGGAGCCCGAGGGTTGGATCTTTCGCACCAAGCCCGCGGCGGTCAGGGCATGCAGCACGTCGTACACGGCTTGCCGGGATACGTCGGGCAGCGCAAAACGC (double strand) [katGp]
binds: [1] | [2] | [3] | [3]; H2O2 (not affected), 400 nM protein | [4]

Where a chain is given by its changes, count along the chain named. Construct, isoform or probe ends are uncertain for at least one entry. Where a protein sequence is shown, tags need not be part of it.
